A mixed list of measured activities; the numbers were collected in NIAID ChemDB.

All rows: growth or infection tests; agent: HIV-1

ECn is the concentration giving n% inhibition of infection, replication or growth. An empty or dashed field is not shown. Lines come from different laboratories, so protocols vary.

structure	changes	strain or isolate	endpoint	cells	read by	result
NOCc1c(Cl)cccc1Cl	-	IIIB	EC50	MT-4	cytopathic effect / MTT	1.67 µg/mL
O=c1[nH]n(-c2nc3ccccc3c(=O)n2-c2ccc(Cl)cc2)c(=O)c2ccccc12	-	IIIB	EC50	MT-4	visual reading	43.68 µM
CC(C)CN(C[C@@H](O)[C@H](Cc1ccccc1)NC(=O)O[C@H]1CCOC1)S(=O)(=O)c1ccc(N)cc1	PR-M46I L63P A71V V82F/L I84V	Multi-PI-resistant EP13	EC50	MT-4	cytopathic effect / propidium iodide	0.44 µM
Nc1nc2c(ncn2[C@H]2CC[C@H](CO)O2)c(=O)[nH]1	-	IIIB	EC50	MT-2	cytopathic effect / MTT	>100 µM
O=c1[nH]n(-c2nc3ccccc3c(=O)n2-c2ccccc2Cl)c(=O)c2ccccc12	-	IIIB	EC50	MT-4	visual reading	100 µM
Nc1nc(N)c2ncn([C@H]3CC[C@H](CO)O3)c2n1	-	IIIB	EC50	MT-2	cytopathic effect / MTT	>100 µM
Cc1cn([C@H]2C[C@H](N=[N+]=[N-])[C@@H](CO)O2)c(=O)[nH]c1=O	-	LAI	EC50	MT-4	cytopathic effect	0.004 µg/mL
C=CCN(C(=O)NCc1ccc(F)c(F)c1)C1CCN([C@H]2CN(C(=O)C3CCCC3)C[C@]2(O)c2ccccc2)CC1	-	-	EC50	PBMC	p24 / ELISA	<0.05 µM
Cc1cn([C@@H]2O[C@H](CO[Si](C)(C)C(C)(C)C)C3(OS(=O)(=O)C=C3N)[C@H]2O[Si](C)(C)C(C)(C)C)c(=O)n(C)c1=O	RT-M41L T215Y	HXB2	EC50	CEM	syncytia	0.05 µg/mL
Cc1ccc(S(=O)(=O)N(CC(C)C)C[C@@H](O)[C@H](Cc2ccccc2)NC(=O)O[C@H]2CO[C@H]3OCC[C@H]32)cc1	K112M K113E V128I M200I H219P	IIIB	EC50	MT-2	p24 / ELISA	0.008 µM
Cc1cn([C@H]2C[C@H](N=[N+]=[N-])[C@@H](CO)O2)c(=O)[nH]c1=O	-	NL4-3	EC50	MT-4	MTT	0.0007 µM
C#C[C@]1(CO)O[C@@H](n2cnc3c(N)ncnc32)C[C@@H]1O	-	ERS104pre	EC50	PBMC	p24	0.013 µM
Cc1ccnc2c1NC(=O)c1cccnc1N2C1CC1	-	HXB2	EC50	CEM	syncytia	0.09 µg/mL
Nc1nc(Cl)nc2c1ncn2[C@@H]1CC[C@H](CO)O1	-	IIIB	EC50	MT-2	cytopathic effect / MTT	>100 µM
C1CNCCNCCCN[C@H]([C@@H]2CNCCCNCCNCCCN2)CNC1	-	IIIB	EC50	MT-4	MTT	0.1 µg/mL
O=C1N(Cc2cccc(Cn3nccn3)c2)[C@H](Cc2ccccc2)[C@H](O)[C@@H](O)[C@@H](Cc2ccccc2)N1Cc1ccc2[nH]ncc2c1	-	RF	EC50	MT-2	-	<0.032 µM
CC[C@H]1C(=O)Nc2ccc(F)cc2N1C(=O)OC(C)C	RT-V106A	NNRTI-resistant	EC50	CEM	cytopathic effect	0.075 µM
C=CCN(C(=O)NCc1ccc(C(F)(F)F)cc1)C1CCN([C@H]2CN(C(=O)c3ccco3)C[C@]2(O)c2ccccc2)CC1	-	-	EC50	PBMC	p24 / ELISA	>0.1 µM
CCOP(=O)(COc1ccc(C[C@H](NC(=O)O[C@H]2CO[C@H]3OCC[C@H]32)[C@H](O)CN(CC(C)C)S(=O)(=O)c2ccc(OC)cc2)cc1)OCC	I401T	IIIB	EC50	MT-2	p24 / ELISA	0.008 µM
O=c1[nH]cnc2c1ncn2[C@H]1CC[C@@H](CO)O1	-	IIIB	EC50	MT-2	cytopathic effect / MTT	20 µM
C=CCN(C(=O)NCc1ccc(S(=O)(=O)NC)cc1)C1CCN(C[C@H]2CN(C(=O)C3CCCC3)C[C@]2(O)c2ccccc2)CC1	-	-	EC50	PBMC	p24	<0.005 µM
C=C[C@]1(CO)O[C@@H](n2cc(C)c(=O)[nH]c2=O)C[C@@H]1O	-	HXB2	EC50	HeLa	β-galactosidase	8.1 µM
CNc1cc(CN2C(=O)N(Cc3ccc4[nH]ncc4c3)[C@H](Cc3ccccc3)[C@H](O)[C@@H](O)[C@H]2Cc2ccccc2)ccc1F	-	RF	EC50	MT-2	-	<0.007 µM
Cc1cn([C@H]2C[C@H](N=[N+]=[N-])[C@@H](CO)O2)c(=O)[nH]c1=O	RT-M41L L210W T215Y	Q252-2 Clinical isolate ZDV-resistant	EC50	HT4 + HeLa	syncytia	2.8 µM
O=C1N(Cc2cccc(Cn3cccn3)c2)[C@H](Cc2ccccc2)[C@H](O)[C@@H](O)[C@@H](Cc2ccccc2)N1Cc1ccc2[nH]ncc2c1	-	RF	EC50	MT-2	-	<0.046 µM
Nc1nc(=O)n([C@@H]2CC[C@H](CO)O2)cc1F	-	IIIB	EC50	MT-2	cytopathic effect / MTT	0.45 µM
C#C[C@]1(CO)O[C@@H](n2cc(I)c(=O)[nH]c2=O)C[C@@H]1O	RT	RTMDR	EC50	HeLa	β-galactosidase	0.32 µM
Nc1nc2ncn([C@H]3CC[C@H](CO)O3)c2c(=O)[nH]1	-	IIIB	EC50	MT-2	cytopathic effect / MTT	>100 µM
Nc1ccn([C@H]2C[C@H](O)[C@](CO)(CF)O2)c(=O)n1	RT	RTMDR	EC50	HeLa	β-galactosidase	0.0039 µM
Cc1cn([C@H]2C[C@H](N=[N+]=[N-])[C@@H](CO)O2)c(=O)[nH]c1=O	-	MN	EC50	MT-4	cytopathic effect / MTT	0.0033 µg/mL
O=C1N(Cc2ccc(F)c(NCc3nc4ccccc4[nH]3)c2)[C@H](Cc2ccccc2)[C@H](O)[C@@H](O)[C@@H](Cc2ccccc2)N1Cc1ccc2[nH]ncc2c1	-	RF	EC50	MT-2	-	<0.03 µM
C1CNCCNCCCN(CCCN2CCCNCCNCCCNCC2)CCNC1	-	IIIB	EC50	MT-4	MTT	0.1 µg/mL
CC(C)c1nc(CN(C)C(=O)N[C@H](C(=O)N[C@@H](Cc2ccccc2)C[C@H](O)[C@H](Cc2ccccc2)NC(=O)OCc2cncs2)C(C)C)cs1	-	NL4-3 PR-S12T I15V I19L M36I R41K H69K L89M I93L CLONE 6( C )	EC50	MT-4	cytopathic effect / MTT	0.042 µM
Nc1ccn([C@H]2CC[C@@H](CO)O2)c(=O)n1	-	IIIB	EC50	MT-2	cytopathic effect / MTT	0.6 µM
C=CCn1c(-n2[nH]c(=O)c3ccccc3c2=O)nc2ccccc2c1=O	-	IIIB	EC50	MT-4	visual reading	100 µM
COC(=O)NCCCC(C)(C)CN(C[C@@H](O)[C@H](Cc1ccccc1)NC(=O)O[C@H]1CO[C@H]2OCC[C@H]21)S(=O)(=O)c1ccc(N)cc1	PR-M46I L63P A71V V82F/L I84V	Multi-PI-resistant EP13	EC50	MT-4	cytopathic effect / propidium iodide	0.046 µM
CCc1cc(CCc2nc3ccccc3o2)c(=S)[nH]c1C	RT-K103N Y181C	A17	EC50	H9	p24	<25 µM
C=CCN(C(=O)OCc1ccc(S(=O)ONC)cc1)C1CCN([C@H]2CN(C(=O)C3CCCC3)C[C@]2(O)c2ccccc2)CC1	-	-	EC50	PBMC	p24 / ELISA	<0.005 µM
C#C[C@]1(CO)O[C@@H](n2cc(C)c(=O)[nH]c2=O)C[C@@H]1O	RT-M41L T215Y	RT-M41L/T215Y	EC50	HeLa	β-galactosidase	0.43 µM
O=c1[nH]n(-c2nc3ccccc3c(=O)n2-c2ccc([N+](=O)[O-])cc2)c(=O)c2ccccc12	-	IIIB	EC50	MT-4	visual reading	66.47 µM
NOCc1c(F)cccc1Cl	-	SUM9	EC50	HELA/CD4 + HELA CD4+	β-galactosidase	1.4 µg/mL
O=C(Nc1nccs1)c1cccc(CN2C(=O)N(Cc3ccc4[nH]ncc4c3)[C@H](Cc3ccccc3)[C@H](O)[C@@H](O)[C@H]2Cc2ccccc2)c1	-	RF WT	EC50	MT-2	-	<0.008 µM
C=CCN(C(=O)NCc1ccc(S(=O)ONC)cc1)C1CCN([C@H]2CN(C(=O)C3CCCC3)C[C@]2(O)c2ccccc2)CC1	-	-	EC50	PBMC	p24 / ELISA	<0.005 µM
NC(=NO)c1cccc(CN2C(=O)N(Cc3cccc(C(N)=NO)c3)[C@H](Cc3ccccc3)[C@H](O)[C@@H](O)[C@H]2Cc2ccccc2)c1	-	RF WT	EC50	MT-2	-	<0.3 µM
Cc1cn([C@@H]2O[C@H](CO[Si](C)(C)C(C)(C)C)C3(OS(=O)(=O)C=C3N)[C@H]2O[Si](C)(C)C(C)(C)C)c(=O)n(C)c1=O	RT-K103N	NNRTI-resistant	EC50	CEM	cytopathic effect	0.86 µM
O=c1[nH]cnc2c1ncn2[C@H]1CC[C@@H](CO)O1	RT-M41L T215Y	HXB2	EC50	CEM	syncytia	2.9 µg/mL
CC(C)(CCCN)CN(C[C@@H](O)[C@H](Cc1ccccc1)NC(=O)O[C@H]1CO[C@H]2OCC[C@H]21)S(=O)(=O)c1ccc2c(c1)OCO2	PR-M46I L63P A71V V82F/L I84V	Multi-PI-resistant EP13	EC50	MT-4	cytopathic effect / propidium iodide	0.54 µM
Cc1cn([C@H]2C[C@H](N=[N+]=[N-])[C@@H](CO)O2)c(=O)[nH]c1=O	-	BaL	EC50	PBMC	p24	0.003 µM
Cc1ccnc2c1NC(=O)c1cccnc1N2C1CC1	-	Subtype B isolate	EC50	PBMC	RT activity	0.04 µM
COC(=O)NCCC(C)(C)CN(C[C@@H](O)[C@H](Cc1ccccc1)NC(=O)O[C@H]1CO[C@H]2OCC[C@H]21)S(=O)(=O)c1ccc2c(c1)OCO2	PR-M46I L63P A71V V82F/L I84V	Multi-PI-resistant EP13	EC50	MT-4	cytopathic effect / propidium iodide	0.022 µM
Cc1occc1C(=S)Nc1ccc(Cl)c(/C=N/OC(C)(C)C)c1	RT-M41L T215Y	HXB2	EC50	CEM	syncytia	0.03 µg/mL
Nc1ccc(CN2C(=O)N(Cc3ccc4[nH]ncc4c3)[C@H](Cc3ccccc3)[C@H](O)[C@@H](O)[C@H]2Cc2ccccc2)cc1	-	RF WT	EC50	MT-2	-	<0.011 µM
C=CCN(C(=O)Nc1ccc(Cl)cc1)C1CCN([C@H]2CN(C(=O)C3CCCC3)C[C@]2(O)c2ccccc2)CC1	-	-	EC50	PBMC	p24 / ELISA	>0.1 µM
CO[P@](=O)(c1cc(C)cc(/C=C/C#N)c1)c1c(C(N)=O)[nH]c2ccc(Cl)c(F)c12	Y181C	IIIB	EC50	MT-4	-	0.0028 µM
Cc1c(O)cccc1C(=O)N[C@@H](CSc1ccccc1)[C@H](O)CN1C[C@H]2CCCC[C@H]2C[C@H]1C(=O)NC(C)(C)C	-	NL4-3 PR S12T I15V I19L M36I R41K H69K L89M CLONE 5( C )	EC50	MT-4	cytopathic effect / MTT	0.0392 µM
Cc1cn([C@H]2C[C@H](N=[N+]=[N-])[C@@H](CO)O2)c(=O)[nH]c1=O	D437N	IIIB	EC50	MT-2	p24 / ELISA	0.153 µM
CC(C)Nc1cccnc1N1CCN(C(=O)c2cc3cc(NS(C)(=O)=O)ccc3[nH]2)CC1	RT-E138K	TSAO-m3T-resistant	EC50	CEM	cytopathic effect	0.021 µM
Cc1cn([C@H]2C[C@H](N=[N+]=[N-])[C@@H](CO)O2)c(=O)[nH]c1=O	RT-K103N Y181C	A17	EC50	MT-2	RT activity	0.03 µM
Nc1ncnc2c1ncn2[C@H]1CC[C@H](CO)O1	-	IIIB	EC50	MT-2	cytopathic effect / MTT	>100 µM
Nc1ccc(CN2C(=O)N(Cc3ccc4[nH]ncc4c3)[C@H](Cc3ccccc3)[C@H](O)[C@@H](O)[C@H]2Cc2ccccc2)cc1-n1ccnn1	-	RF	EC50	MT-2	-	<0.038 µM
C=CCN(C(=O)OCc1ccc([N+](=O)[O-])cc1)C1CCN([C@H]2CN(C(=O)C3CCCC3)C[C@]2(O)c2ccccc2)CC1	-	-	EC50	PBMC	p24 / ELISA	<0.05 µM
O=C1N(Cc2cccc(Cn3cncn3)c2)[C@H](Cc2ccccc2)[C@H](O)[C@@H](O)[C@@H](Cc2ccccc2)N1Cc1ccc2[nH]ncc2c1	-	RF	EC50	MT-2	-	<0.035 µM
CC(C)(C)NC(=O)[C@@H]1C[C@@H]2CCCC[C@@H]2CN1C[C@@H](O)[C@H](Cc1ccccc1)NC(=O)[C@H](CC(N)=O)NC(=O)c1ccc2ccccc2n1	-	Group O isolate	EC50	PBMC	RT activity	0.015 µM
CCc1cc(CCc2nc3c(Cl)ccc(Cl)c3o2)c(=S)[nH]c1C	RT-K103N Y181C	A17	EC95	H9	p24	0.8 µM
CCCCC#CCSc1ccccc1OC(C)=O	-	BaL	EC50	PBMC	p24	13.5 µM
C=CCN(C(=O)NCc1ccc(C(F)(F)F)cc1)C1CCN([C@H]2CN(C(=O)C3CCC(F)(F)CC3)C[C@]2(O)c2ccccc2)CC1	-	-	EC50	PBMC	p24 / ELISA	<0.05 µM

The first 7 rows once more:

structure	changes	strain or isolate	endpoint	cells	read by	result
NOCc1c(Cl)cccc1Cl	-	IIIB	EC50	MT-4	cytopathic effect / MTT	1.67 µg/mL
O=c1[nH]n(-c2nc3ccccc3c(=O)n2-c2ccc(Cl)cc2)c(=O)c2ccccc12	-	IIIB	EC50	MT-4	visual reading	43.68 µM
CC(C)CN(C[C@@H](O)[C@H](Cc1ccccc1)NC(=O)O[C@H]1CCOC1)S(=O)(=O)c1ccc(N)cc1	PR-M46I L63P A71V V82F/L I84V	Multi-PI-resistant EP13	EC50	MT-4	cytopathic effect / propidium iodide	0.44 µM
Nc1nc2c(ncn2[C@H]2CC[C@H](CO)O2)c(=O)[nH]1	-	IIIB	EC50	MT-2	cytopathic effect / MTT	>100 µM
O=c1[nH]n(-c2nc3ccccc3c(=O)n2-c2ccccc2Cl)c(=O)c2ccccc12	-	IIIB	EC50	MT-4	visual reading	100 µM
Nc1nc(N)c2ncn([C@H]3CC[C@H](CO)O3)c2n1	-	IIIB	EC50	MT-2	cytopathic effect / MTT	>100 µM
Cc1cn([C@H]2C[C@H](N=[N+]=[N-])[C@@H](CO)O2)c(=O)[nH]c1=O	-	LAI	EC50	MT-4	cytopathic effect	0.004 µg/mL